{"sequences": {"note": "Protein sequences, listed by entry. Tags and fused reporters are not part of them. Residues count along the entry.", "UniProt P04756, 21-457 limits assumed": "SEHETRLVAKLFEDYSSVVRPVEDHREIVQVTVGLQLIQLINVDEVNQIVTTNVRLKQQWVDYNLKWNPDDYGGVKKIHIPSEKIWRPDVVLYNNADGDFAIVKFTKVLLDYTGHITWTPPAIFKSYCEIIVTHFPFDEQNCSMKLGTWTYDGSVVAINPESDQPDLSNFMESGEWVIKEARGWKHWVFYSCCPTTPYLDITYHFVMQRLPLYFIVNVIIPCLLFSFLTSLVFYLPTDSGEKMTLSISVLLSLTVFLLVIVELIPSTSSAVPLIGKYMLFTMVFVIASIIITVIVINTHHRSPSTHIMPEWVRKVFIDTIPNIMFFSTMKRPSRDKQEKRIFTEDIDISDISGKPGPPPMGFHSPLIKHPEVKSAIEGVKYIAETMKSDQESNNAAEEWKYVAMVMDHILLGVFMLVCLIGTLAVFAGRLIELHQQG", "UniProt P09690, 24-501 limits assumed": "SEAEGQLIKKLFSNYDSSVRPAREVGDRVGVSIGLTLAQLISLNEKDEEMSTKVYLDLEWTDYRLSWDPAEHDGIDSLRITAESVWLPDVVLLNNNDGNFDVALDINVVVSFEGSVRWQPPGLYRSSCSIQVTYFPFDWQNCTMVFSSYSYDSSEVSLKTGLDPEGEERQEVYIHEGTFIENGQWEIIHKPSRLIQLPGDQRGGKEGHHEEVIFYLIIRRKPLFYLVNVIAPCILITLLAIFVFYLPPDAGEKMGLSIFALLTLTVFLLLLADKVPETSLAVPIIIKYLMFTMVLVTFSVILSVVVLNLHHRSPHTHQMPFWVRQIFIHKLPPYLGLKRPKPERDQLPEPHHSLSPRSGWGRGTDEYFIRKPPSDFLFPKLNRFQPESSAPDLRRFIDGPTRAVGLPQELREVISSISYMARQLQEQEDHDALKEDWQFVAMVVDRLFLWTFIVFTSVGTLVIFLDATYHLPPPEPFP", "UniProt P02716, 25-520 limits assumed": "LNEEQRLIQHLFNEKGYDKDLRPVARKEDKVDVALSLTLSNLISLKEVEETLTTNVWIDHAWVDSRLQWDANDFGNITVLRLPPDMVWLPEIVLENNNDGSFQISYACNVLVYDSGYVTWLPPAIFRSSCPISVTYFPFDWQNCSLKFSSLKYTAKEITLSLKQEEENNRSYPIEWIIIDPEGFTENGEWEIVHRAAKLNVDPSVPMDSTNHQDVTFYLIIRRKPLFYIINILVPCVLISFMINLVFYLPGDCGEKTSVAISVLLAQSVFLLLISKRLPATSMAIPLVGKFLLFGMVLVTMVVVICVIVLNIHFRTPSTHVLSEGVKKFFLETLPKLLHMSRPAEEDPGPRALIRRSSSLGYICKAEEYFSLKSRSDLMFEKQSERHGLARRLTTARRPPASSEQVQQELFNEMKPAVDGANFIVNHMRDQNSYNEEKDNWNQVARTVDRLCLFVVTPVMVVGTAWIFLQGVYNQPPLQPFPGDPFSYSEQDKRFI", "UniProt P20782, 21-493 limits assumed": "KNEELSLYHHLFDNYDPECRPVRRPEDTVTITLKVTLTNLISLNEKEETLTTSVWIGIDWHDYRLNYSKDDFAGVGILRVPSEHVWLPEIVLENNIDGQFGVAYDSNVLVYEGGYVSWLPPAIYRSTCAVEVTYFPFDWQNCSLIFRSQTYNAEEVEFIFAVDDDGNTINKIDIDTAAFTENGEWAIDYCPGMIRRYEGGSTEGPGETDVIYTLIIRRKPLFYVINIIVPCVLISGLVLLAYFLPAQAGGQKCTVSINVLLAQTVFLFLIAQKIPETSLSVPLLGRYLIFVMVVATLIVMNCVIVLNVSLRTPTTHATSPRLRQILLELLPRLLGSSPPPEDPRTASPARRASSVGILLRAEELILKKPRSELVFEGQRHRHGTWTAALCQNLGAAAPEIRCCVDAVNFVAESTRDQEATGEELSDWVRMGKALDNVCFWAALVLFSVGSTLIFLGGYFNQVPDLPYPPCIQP"}, "source": "ChEMBL document CHEMBL5346973", "about": "(J Med Chem, 2023)", "target": "Nicotinic acetylcholine receptor alpha1/beta1/epsilon/delta (Mus musculus, UniProt P04756+P09690+P02716+P20782)", "test": "Antagonist activity at mouse alpha1beta1deltaepsilon nACh receptor expressed in Xenopus oocyte assessed as inhibition of acetylcholine-induced response at -70 mV holding potential by voltage-clamp based electrophysiological assay", "data": [{"smiles": "CC[C@H](C)[C@@H]1NC(=O)[C@H](CCCNC(=N)N)NC(=O)[C@H](CCCNC(=N)N)NC(=O)[C@@H]2CSSC[C@H](NC(=O)[C@H](Cc3ccc(O)cc3)NC(=O)[C@H](CCCNC(=N)N)NC(=O)CNC(=O)[C@H](CO)NC(=O)[C@H](CO)NC(=O)[C@H](CCCNC(=N)N)NC(=O)[C@@H](NC(=O)[C@@H](N)[C@@H](C)O)CSSC[C@@H](C(=O)N[C@H](C(=O)O)C(C)C)NC(=O)[C@H](C)NC(=O)[C@H](CC(=O)O)NC(=O)[C@H]([C@@H](C)O)NC1=O)C(=O)N[C@@H](CCCNC(=N)N)C(=O)N[C@@H](CO)C(=O)N1CCC[C@H]1C(=O)N[C@@H](Cc1ccc(O)cc1)C(=O)N[C@@H](CC(=O)O)C(=O)N[C@@H](CCCNC(=N)N)C(=O)N[C@@H](C)C(=O)N[C@@H](CCCNC(=N)N)C(=O)N[C@@H](CCCNC(=N)N)C(=O)N[C@@H](Cc1ccc(O)cc1)C(=O)N2", "values": [{"measurement": "IC50", "result": 1630, "unit": "nM"}]}, {"smiles": "CC[C@H](C)[C@@H]1NC(=O)[C@H](CCCNC(=N)N)NC(=O)[C@H](CCCNC(=N)N)NC(=O)[C@@H]2CSSC[C@H](NC(=O)[C@H](Cc3ccc(O)cc3)NC(=O)[C@H](CCCNC(=N)N)NC(=O)CNC(=O)[C@H](CO)NC(=O)[C@H](CO)NC(=O)[C@H](CCCNC(=N)N)NC(=O)[C@@H](NC(=O)[C@H](C)N)CSSC[C@@H](C(=O)N[C@H](C(=O)O)C(C)C)NC(=O)[C@H](C)NC(=O)[C@H](CC(=O)O)NC(=O)[C@H]([C@@H](C)O)NC1=O)C(=O)N[C@@H](CCCNC(=N)N)C(=O)N[C@@H](CO)C(=O)N1CCC[C@H]1C(=O)N[C@@H](Cc1ccc(O)cc1)C(=O)N[C@@H](CC(=O)O)C(=O)N[C@@H](CCCNC(=N)N)C(=O)N[C@@H](CCCNC(=N)N)C(=O)N[C@@H](CCCNC(=N)N)C(=O)N[C@@H](CCCNC(=N)N)C(=O)N[C@@H](Cc1ccc(O)cc1)C(=O)N2", "values": [{"measurement": "IC50", "result": 1330, "unit": "nM"}]}, {"smiles": "CC[C@H](C)[C@@H]1NC(=O)[C@H](CCCNC(=N)N)NC(=O)[C@H](CCCNC(=N)N)NC(=O)[C@@H](NC(=O)[C@H](Cc2ccc(O)cc2)NC(=O)[C@H](CCCNC(=N)N)NC(=O)[C@H](CCCNC(=N)N)NC(=O)[C@H](CCCNC(=N)N)NC(=O)[C@H](CCCNC(=N)N)NC(=O)[C@H](CC(=O)O)NC(=O)[C@H](Cc2ccc(O)cc2)NC(=O)[C@@H]2CCCN2C(=O)[C@H](CO)NC(=O)[C@H](CCCNC(=N)N)NC(=O)[C@@H]2CSSC[C@H](NC(=O)[C@@H](N)[C@@H](C)O)C(=O)N[C@@H](CCCNC(=N)N)C(=O)N[C@@H](C)C(=O)N[C@@H](CO)C(=O)NCC(=O)N[C@@H](CCCNC(=N)N)C(=O)N[C@@H](Cc3ccc(O)cc3)C(=O)N2)CSSC[C@@H](C(=O)N[C@H](C(=O)O)C(C)C)NC(=O)[C@H](C)NC(=O)[C@H](CC(=O)O)NC(=O)[C@H]([C@@H](C)O)NC1=O", "values": [{"measurement": "IC50", "result": 1000, "unit": "nM"}]}, {"smiles": "CC[C@H](C)[C@@H]1NC(=O)[C@H](CCCNC(=N)N)NC(=O)[C@H](CCCNC(=N)N)NC(=O)[C@@H](NC(=O)[C@H](Cc2ccc(O)cc2)NC(=O)[C@H](CCCNC(=N)N)NC(=O)[C@H](CCCNC(=N)N)NC(=O)[C@H](CCCNC(=N)N)NC(=O)[C@H](CCCNC(=N)N)NC(=O)[C@H](CC(=O)O)NC(=O)[C@H](Cc2ccc(O)cc2)NC(=O)[C@@H]2CCCN2C(=O)[C@H](CO)NC(=O)[C@H](CCCNC(=N)N)NC(=O)[C@@H]2CSSC[C@H](NC(=O)[C@H](C)N)C(=O)N[C@@H](CCCNC(=N)N)C(=O)N[C@@H](CO)C(=O)N[C@@H](CO)C(=O)NCC(=O)N[C@@H](CCCNC(=N)N)C(=O)N[C@@H](Cc3ccc(O)cc3)C(=O)N2)CSSC[C@@H](C(=O)N[C@H](C(=O)O)C(C)C)NC(=O)[C@H](C)NC(=O)[C@H](CC(=O)O)NC(=O)[C@H]([C@@H](C)O)NC1=O", "values": [{"measurement": "IC50", "result": 370, "unit": "nM"}]}, {"smiles": "CC[C@H](C)[C@@H]1NC(=O)[C@H](CCCNC(=N)N)NC(=O)[C@H](CCCNC(=N)N)NC(=O)[C@@H]2CSSC[C@H](NC(=O)[C@H](Cc3ccc(O)cc3)NC(=O)[C@H](CCCNC(=N)N)NC(=O)CNC(=O)[C@H](C)NC(=O)[C@H](CO)NC(=O)[C@H](CCCNC(=N)N)NC(=O)[C@@H](NC(=O)[C@@H](N)[C@@H](C)O)CSSC[C@@H](C(=O)N[C@H](C(=O)O)C(C)C)NC(=O)[C@H](C)NC(=O)[C@H](CC(=O)O)NC(=O)[C@H]([C@@H](C)O)NC1=O)C(=O)N[C@@H](CCCNC(=N)N)C(=O)N[C@@H](CO)C(=O)N1CCC[C@H]1C(=O)N[C@@H](Cc1ccc(O)cc1)C(=O)N[C@@H](CC(=O)O)C(=O)N[C@@H](CCCNC(=N)N)C(=O)N[C@@H](CCCNC(=N)N)C(=O)N[C@@H](CCCNC(=N)N)C(=O)N[C@@H](CCCNC(=N)N)C(=O)N[C@@H](Cc1ccc(O)cc1)C(=O)N2", "values": [{"measurement": "IC50", "result": 910, "unit": "nM"}]}, {"smiles": "CC[C@H](C)[C@@H]1NC(=O)[C@H](CCCNC(=N)N)NC(=O)[C@H](CCCNC(=N)N)NC(=O)[C@@H]2CSSC[C@H](NC(=O)[C@H](Cc3ccc(O)cc3)NC(=O)[C@H](CCCNC(=N)N)NC(=O)CNC(=O)[C@H](CO)NC(=O)[C@H](CO)NC(=O)[C@H](CCCNC(=N)N)NC(=O)[C@@H](NC(=O)[C@@H](N)[C@@H](C)O)CSSC[C@@H](C(=O)N[C@H](C(=O)O)C(C)C)NC(=O)[C@H](C)NC(=O)[C@H](CC(=O)O)NC(=O)[C@H]([C@@H](C)O)NC1=O)C(=O)N[C@@H](CCCNC(=N)N)C(=O)N[C@@H](CO)C(=O)N1CCC[C@H]1C(=O)N[C@@H](Cc1ccc(O)cc1)C(=O)N[C@@H](CC(=O)O)C(=O)N[C@@H](C)C(=O)N[C@@H](CCCNC(=N)N)C(=O)N[C@@H](CCCNC(=N)N)C(=O)N[C@@H](CCCNC(=N)N)C(=O)N[C@@H](Cc1ccc(O)cc1)C(=O)N2", "values": [{"measurement": "IC50", "result": 640, "unit": "nM"}]}, {"smiles": "CC(C)[C@H](NC(=O)[C@@H]1CSSC[C@H](NC(=O)[C@H](Cc2ccc(O)cc2)NC(=O)[C@H](CCCNC(=N)N)NC(=O)[C@H](CCCNC(=N)N)NC(=O)[C@H](CCCNC(=N)N)NC(=O)[C@H](CCCNC(=N)N)NC(=O)[C@H](CC(=O)O)NC(=O)[C@H](Cc2ccc(O)cc2)NC(=O)[C@@H]2CCCN2C(=O)[C@H](CO)NC(=O)[C@H](CCCNC(=N)N)NC(=O)[C@@H]2CSSC[C@H](NC(=O)[C@@H](N)[C@@H](C)O)C(=O)N[C@@H](CCCNC(=N)N)C(=O)N[C@@H](CO)C(=O)N[C@@H](CO)C(=O)NCC(=O)N[C@@H](CCCNC(=N)N)C(=O)N[C@@H](Cc3ccc(O)cc3)C(=O)N2)C(=O)N[C@@H](CCCNC(=N)N)C(=O)N[C@@H](CCCNC(=N)N)C(=O)N[C@@H](C)C(=O)N[C@@H]([C@@H](C)O)C(=O)N[C@@H](CC(=O)O)C(=O)N[C@@H](C)C(=O)N1)C(=O)O", "values": [{"measurement": "IC50", "result": 4840, "unit": "nM"}]}, {"smiles": "CC[C@H](C)[C@@H]1NC(=O)[C@H](CCCNC(=N)N)NC(=O)[C@H](CCCNC(=N)N)NC(=O)[C@@H](NC(=O)[C@H](Cc2ccc(O)cc2)NC(=O)[C@H](CCCNC(=N)N)NC(=O)[C@H](C)NC(=O)[C@H](CCCNC(=N)N)NC(=O)[C@H](CCCNC(=N)N)NC(=O)[C@H](CC(=O)O)NC(=O)[C@H](Cc2ccc(O)cc2)NC(=O)[C@@H]2CCCN2C(=O)[C@H](CO)NC(=O)[C@H](CCCNC(=N)N)NC(=O)[C@@H]2CSSC[C@H](NC(=O)[C@@H](N)[C@@H](C)O)C(=O)N[C@@H](CCCNC(=N)N)C(=O)N[C@@H](CO)C(=O)N[C@@H](CO)C(=O)NCC(=O)N[C@@H](CCCNC(=N)N)C(=O)N[C@@H](Cc3ccc(O)cc3)C(=O)N2)CSSC[C@@H](C(=O)N[C@H](C(=O)O)C(C)C)NC(=O)[C@H](C)NC(=O)[C@H](CC(=O)O)NC(=O)[C@H]([C@@H](C)O)NC1=O", "values": [{"measurement": "IC50", "result": 6290, "unit": "nM"}]}, {"smiles": "CC[C@H](C)[C@@H]1NC(=O)[C@H](CCCNC(=N)N)NC(=O)[C@H](CCCNC(=N)N)NC(=O)[C@@H](NC(=O)[C@H](Cc2ccc(O)cc2)NC(=O)[C@H](CCCNC(=N)N)NC(=O)[C@H](CCCNC(=N)N)NC(=O)[C@H](CCCNC(=N)N)NC(=O)[C@H](CCCNC(=N)N)NC(=O)[C@H](CC(=O)O)NC(=O)[C@H](Cc2ccc(O)cc2)NC(=O)[C@@H]2CCCN2C(=O)[C@H](C)NC(=O)[C@H](CCCNC(=N)N)NC(=O)[C@@H]2CSSC[C@H](NC(=O)[C@@H](N)[C@@H](C)O)C(=O)N[C@@H](CCCNC(=N)N)C(=O)N[C@@H](CO)C(=O)N[C@@H](CO)C(=O)NCC(=O)N[C@@H](CCCNC(=N)N)C(=O)N[C@@H](Cc3ccc(O)cc3)C(=O)N2)CSSC[C@@H](C(=O)N[C@H](C(=O)O)C(C)C)NC(=O)[C@H](C)NC(=O)[C@H](CC(=O)O)NC(=O)[C@H]([C@@H](C)O)NC1=O", "values": [{"measurement": "IC50", "result": 1100, "unit": "nM"}]}, {"smiles": "CC[C@H](C)[C@@H]1NC(=O)[C@H](CCCNC(=N)N)NC(=O)[C@H](C)NC(=O)[C@@H]2CSSC[C@H](NC(=O)[C@H](Cc3ccc(O)cc3)NC(=O)[C@H](CCCNC(=N)N)NC(=O)CNC(=O)[C@H](CO)NC(=O)[C@H](CO)NC(=O)[C@H](CCCNC(=N)N)NC(=O)[C@@H](NC(=O)[C@@H](N)[C@@H](C)O)CSSC[C@@H](C(=O)N[C@H](C(=O)O)C(C)C)NC(=O)[C@H](C)NC(=O)[C@H](CC(=O)O)NC(=O)[C@H]([C@@H](C)O)NC1=O)C(=O)N[C@@H](CCCNC(=N)N)C(=O)N[C@@H](CO)C(=O)N1CCC[C@H]1C(=O)N[C@@H](Cc1ccc(O)cc1)C(=O)N[C@@H](CC(=O)O)C(=O)N[C@@H](CCCNC(=N)N)C(=O)N[C@@H](CCCNC(=N)N)C(=O)N[C@@H](CCCNC(=N)N)C(=O)N[C@@H](CCCNC(=N)N)C(=O)N[C@@H](Cc1ccc(O)cc1)C(=O)N2", "values": [{"measurement": "IC50", "result": 860, "unit": "nM"}]}, {"smiles": "CC[C@H](C)[C@@H]1NC(=O)[C@H](CCCNC(=N)N)NC(=O)[C@H](CCCNC(=N)N)NC(=O)[C@@H](NC(=O)[C@H](C)NC(=O)[C@H](CCCNC(=N)N)NC(=O)[C@H](CCCNC(=N)N)NC(=O)[C@H](CCCNC(=N)N)NC(=O)[C@H](CCCNC(=N)N)NC(=O)[C@H](CC(=O)O)NC(=O)[C@H](Cc2ccc(O)cc2)NC(=O)[C@@H]2CCCN2C(=O)[C@H](CO)NC(=O)[C@H](CCCNC(=N)N)NC(=O)[C@@H]2CSSC[C@H](NC(=O)[C@@H](N)[C@@H](C)O)C(=O)N[C@@H](CCCNC(=N)N)C(=O)N[C@@H](CO)C(=O)N[C@@H](CO)C(=O)NCC(=O)N[C@@H](CCCNC(=N)N)C(=O)N[C@@H](Cc3ccc(O)cc3)C(=O)N2)CSSC[C@@H](C(=O)N[C@H](C(=O)O)C(C)C)NC(=O)[C@H](C)NC(=O)[C@H](CC(=O)O)NC(=O)[C@H]([C@@H](C)O)NC1=O", "values": [{"measurement": "IC50", "result": 2820, "unit": "nM"}]}]}
